Measurements as given in article PMC4890005, “Newly identified motifs in Candida albicans Cdr1 protein nucleotide binding domains are pleiotropic drug resistance subfamily-specific and functionally asymmetric” (Scientific Reports, 2016).

Test system: Nc1ncnc2c1ncn2[C@@H]1O[C@H](COP(=O)(O)OP(=O)(O)OP(=O)(O)O)[C@@H](O)[C@H]1O
Assay: cells, lysate or membranes
Details: 30 °C, Mg-ATP
[1] = M2-Del905 (deletion of L905, same sequence as deletion of L904)

Substance | Km [1] [mM] | Vmax [1] [µmol/min/mg] | Km (M2-Del903 (deletion of T903)) [mM] | Vmax (M2-Del903 (deletion of T903)) [µmol/min/mg]
Cdr1p (Cdr1p-GFP) (Candida albicans SC5314; DEL905-905) | 2.9 ± 0.8 | 0.0992 | – | –
Cdr1p (Cdr1p-GFP) (Candida albicans SC5314; DEL903-903) | – | – | 6.7 ± 0.8 | 0.0453
